Results from article PMC8413292, “Small-molecule polymerase inhibitor protects non-human primates from measles and reduces shedding” (Nature Communications, 2021).

System: MV/FrankfurtMain.DEU/17.11 (genotype D8)
Assay: Neutralizing antibody titers in serum
Assay type: in vivo, squirrel monkeys (Saimiri sciureus)
Method: White blood cell counts, viral load quantification in PBMCs, and quantification of neutralizing antibody titers were performed as follows: for white blood cell counts, blood was diluted 1:100 in 3% acetic acid and cells were counted using a Neubauer chamber. For viral load quantification in PBMCs, blood was centrifuged at 3000 rpm for 15 min and serum was frozen at −20 °C until further use. Red blood cell lysis was performed and the remaining PBMCs were counted using a Neubauer chamber. Viral titers in PBMCs were quantified in quadruplicates using limited dilution method and calculated as TCID50/10^6 PBMCs. Neutralizing antibody titers were quantified by incubating MeV with 2-fold serial dilutions of the respective serum for 20 min at room temperature in quadruplicates. Vero/hSLAM cells were added and incubated for 3 days at 37 °C. Neutralizing antibody titers are expressed as the reciprocal of the highest serum dilution showing no signs of infection. For virus titration from throat swabs, swabs were placed in 150 μl DMEM with 3% penicillin/streptomycin and the titer was quantified by limited dilution method.

In the case of `Cn1nc(C(F)(F)F)cc1C(=O)Nc1ccc(S(=O)(=O)N2CCCC[C@H]2CCN2CCOCC2)cc1` [ERDRP-0519], the “development of neutralizing antibodies” value (all animals from the therapeutically treated groups) is reported as “developed high levels of neutralizing antibodies”, the “neutralizing antibody titers, on average” value (animals of all groups including prophylactically treated, reciprocal serum dilution) is reported as ≥ 120 and the “development of neutralizing antibodies” value (prophylactically treated group, until end of study) is reported as “two animals did not develop neutralizing antibodies”.
